Molecular target: receptor for App on Chang conjunctiva epithelial cells (proteinaceous, not identified) (human)
Test: cell-based or functional assay

App of N. meningitidis strain MC58 (native, on the bacteria)
reduction of association of the MC58Δapp knockout with Chang cells against the wild type strain: 10 fold

Source: patent publication US20140294884A1 (Novartis, published 2014)
